Results of single-concentration screens

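Growth of Mycobacterium tuberculosis over 3 days (7H9 medium with glucose and tyloxapol); the read-out is not stated. Compounds at 500 µM. Direction is inferred from retests: higher values go with more growth inhibition. Size under these conditions: about 18,000 compounds, about 1,400 of them at 50% or above in at least one test.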

Results are given as percent effect. How 0% and 100% were set is not recorded. Most values in the screen are low, and negative values occur. This is part of a subset picked to be rich in strong results.

compound,effect
Cc1ccsc1CN(C)C(=O)c1ccccn1,35.33%
CN(C)C(=O)C(CO)c1ccccc1 (configuration not stated),5.252%
N#CCc1ccc2c(c1)CCO2,5.442%
O=S1(=O)CCCC1CNC1CCSCC1 (configuration not stated),-1.823%
CCc1ccc(S(=O)(=O)N(C)CC(N)=O)s1,56.93%
CCCn1ncc(CN2CCC(O)(CO)C2)c1C (configuration not stated),2.721%
CN(C)c1nccc(N(C)CCn2cccn2)n1,2.626%
C[C@H](N)c1cccs1,11.15%
CCS(=O)(=O)N(C)CC(=O)N1CC2(CCC2)CC1C (configuration not stated),3.011%
COCCN(C)CCNC(=O)c1ccc(Cl)cc1,51.78%
CC(NC(=O)CCCn1cncn1)c1cnn(C)c1 (configuration not stated),7.088%
CN(C)c1cc(CNc2ccc(C#N)cn2)ccn1,60.27%
CC(CO)(NCCS(C)(=O)=O)C1CCCCC1 (configuration not stated),16.7%
CNC(=O)NC(=O)CCN1CCCCC1,43.52%
Cc1nnc(CCNC(=O)[C@@H](N)C(C)(C)C)s1,-7.612%
N#Cc1ccc(CN)cc1Cl,19.79%
CC(N)c1nncn1C (configuration not stated),41.5%
Cc1ccc(C(=O)NCc2ccc3c(c2)OCCO3)o1,76.36%
Clc1cccnc1N1CCNCC1,1.317%
Cc1cc(NC(=O)CCNC(=O)C2CCCC2)n(C)n1,11.17%
COC(=O)N1CCN(c2ccncc2N)CC1,12.09%
Cc1cnccc1CCN,-8.708%
O=C(Nc1ccc(N2CCOCC2)cc1)C1CCCO1 (configuration not stated),-15.08%
CN(C)S(=O)(=O)c1cccc(CN2CCCC(O)C2)c1 (configuration not stated),8.776%
COc1ccc(CC(=O)NCC2CCCNC2)cc1F (configuration not stated),-1.871%
CSCC(=O)NC(C1CCNCC1)[C@H]1C[C@@H](O)C1 (some centres not stated),-11.31%
CC(=Cc1ccccc1)CN1CCC(C(N)=O)C1 (configuration not stated),16.58%
CCc1nc(CNC)cs1,61%
CN1C[C@@H]2CN(C(=O)CCc3cccnc3)C[C@@H]2C1,-1.379%
O=C(c1cc(C2CC2)on1)N1CCC2(CCOCC2)C1,57.49%
O=C(Nc1cn[nH]c1)Nc1cccc(OCC(F)F)n1,10.9%
O=C(CCn1nc2ccccn2c1=O)N1CCNCC1,22.54%
CC(C)(CC(N)=O)NCc1ccc(F)c(C#N)c1,7.046%
CC(=O)c1cc(CN2CCCC2c2nc(C)n[nH]2)cs1 (configuration not stated),2.568%
CCS(=O)(=O)c1ccc(S(=O)(=O)N2CC[C@H](N)C2)cc1,12.1%
CC1(C)OC(=O)N(CCC#N)C1(C)O (configuration not stated),-0.7391%
CN(CC(N)=O)C(CCO)c1ccccc1 (configuration not stated),5.898%
Cc1cnn(C(=O)c2nn(C)c(C)c2Cl)c1,33.61%
O=C(CN1CCCCCCC1)NCc1ncc[nH]1,14.42%
CC1CCN(Cc2nnnn2C2CC2)CC1,35.41%
CCN(CC(=O)NCc1ncccc1F)C1CC1,8.2%
N[C@@H](CO)C(=O)N1CCC(Cc2ccc(F)cc2)CC1,53.03%
CSc1ccccc1C(=O)NCc1n[nH]c(C)n1,14.32%
CS(=O)(=O)CCSCc1ccn(-c2ccc(F)cc2)n1,-12.03%
COCCNC(=O)CN(C)Cc1ccc(C)o1,22.02%
CCn1cc(C(=O)NCc2nnc(C(C)C)n2C)cn1,2.762%
COc1ccccc1NC(=O)N1CCCN(C)CC1,15.16%
O=C(NCCO)c1ccc(-c2ccccc2)cc1,10.65%
O=C(CCc1ccccc1)N1CC(c2cccnc2)C1,65.55%
OCCNC1CCCCC1,-2.784%
CC(C)COc1cncc(NC2CCS(=O)(=O)C2)n1 (configuration not stated),41.22%
CCOc1ccc(S(=O)(=O)NC(C)C(N)=O)cc1 (configuration not stated),-4.003%
CN(C)C(=O)CCN1CCCC1c1ccsc1 (configuration not stated),53.25%
COc1nc(CO)c(C)cc1C,10.05%
Cc1cc(C(=O)NN2CCOCC2)c(C)o1,5.104%
O=C(CCC1CCNCC1)Nc1nc2c(s1)COCC2,8.31%
Clc1ccc(-c2noc(CN3CCCNCC3)n2)cc1,84.16%
CCOCCCNC(=O)c1ccc(C#N)cc1,32.21%
CCN(C)S(=O)(=O)Nc1cc(Cl)c(OC)c(Cl)c1,9.612%

6 of the entries, repeated:

{"compound": "Cc1cc(C(=O)NN2CCOCC2)c(C)o1", "effect": 5.104}
{"compound": "CC1(C)OC(=O)N(CCC#N)C1(C)O", "stereo": "configuration not stated", "effect": -0.7391}
{"compound": "Cc1cc(NC(=O)CCNC(=O)C2CCCC2)n(C)n1", "effect": 11.17}
{"compound": "CN(C)c1nccc(N(C)CCn2cccn2)n1", "effect": 2.626}
{"compound": "Cc1ccc(C(=O)NCc2ccc3c(c2)OCCO3)o1", "effect": 76.36}
{"compound": "Clc1ccc(-c2noc(CN3CCCNCC3)n2)cc1", "effect": 84.16}

Measurements from “University of Dundee, Small-Polar-MMV Screening Library” (2021), ChEMBL document CHEMBL3988442.